Among the data in patent US20230380451A1, “MEANS AND METHODS TO DETOXIFY MYCOTOXINS” (priority 2020, published 2023) are CC50 values, retold here.

Usually CC50 stands for the concentration that lowers cell viability or growth by half.

The test system of the series is primary epithelial cells derived from rainbow trout. As to the kind of experiment: CellTox Green Cytotoxicity Assay.

Some results are limits rather than exact numbers.

Compound `CC1=C[C@H]2O[C@@H]3[C@H](O)C[C@](C)([C@@]2(CO)[C@H](O)C1=O)[C@]31CO1` [DON, (3α,7α)-3,7,15-trihydroxy-12,13-epoxytrichothec-9-en-8-one] yielded a CC50 of under 1000 nM.
